Target: Human PAI-1 (Plasminogen activator inhibitor-1) (human) (UniProt P05121)
Test: SPR (Biacore X100), human PAI-1 amine-coupled on chip, lubricin injected at 0.576-420 µg/mL, 25 °C

**Q.** How did the Kd turn out when “recombinant human lubricin (full length human PRG4) (from UniProt Q92954 25-1404) (other; other documents disagree on this pair)” was run?
**A.** Its Kd is 2.71 µM.
